Results of unrelated studies side by side (data: NIAID ChemDB).

All rows: cytotoxicity tests; cells: E6SM; measure: CC50

Conditions beyond the fields shown may differ between rows.

OC[C@H]1O[C@@H](c2cc(I)c(F)cc2F)C[C@@H]1O ; read by: MTT ; value: 610 µg/mL
O=c1[nH]c(=O)n([C@@H]2C[C@H](CO)C[C@H]2CO)cc1I ; value: >200 µg/mL
CC(C)CS[C@@H]1C=C[C@H](n2cnc3c(N)ncnc32)C1 ; value: 16–80 µg/mL
Nc1nc2c(ncn2[C@H]2C=C[C@@H](CO)[C@H](O)C2)c(=O)[nH]1 ; value: >16 µg/mL
CCn1nc(-c2ccc(Cn3ccc4ccccc43)cc2)nc1C ; value: 400 µg/mL
CCC(Sc1ncnc2c1cnn2COCC(O)CO)C(N)=O ; value: >400 µg/mL
CCn1nc(CC(=O)NN=C(C)C)nc1C ; value: >400 µg/mL
COc1cc2c(cc1OC)[C@@H]1C(N)CSCON1CC2 ; value: ≥100 µg/mL
O=c1[nH]c(=O)n([C@H]2C[C@H](O)[C@@H](CO)O2)cc1/C=C/Br ; value: ≥400 µg/mL
Nc1nccc2c1ncn2[C@@H]1C[C@H](CO)[C@@H](O)[C@H]1O ; value: 100 µg/mL
CO[C@H](CO)[C@@H](O)CCn1ccc(N)nc1=O ; value: >400 µg/mL
CC1(C)[C@@H](CO)CC[C@@]1(C)Cn1nnc2c(Cl)ncnc21 ; value: >400 µg/mL
Cc1nc(CC(=O)NN)nn1C ; value: >400 µg/mL
NC(=O)CSc1ncnc2c1cnn2COCCO ; value: >400 µg/mL
CC1(C)[C@@H](CO)CC[C@@]1(C)Cn1cnc2c(N)ncnc21 ; value: >400 µg/mL
OC[C@H]1O[C@@H](c2cc(C(F)(F)F)c(F)cc2F)C[C@@H]1O ; value: 9 µg/mL
CO[C@H](CO)[C@@H](O)CCn1cnc2c(=O)[nH]c(N)nc21 ; value: >400 µg/mL
COC(=O)[C@H](C)NP(=O)(OC[C@H]1O[C@@H](n2cc(/C=C/Br)c(=O)[nH]c2=O)C[C@@H]1O)Oc1ccccc1 ; value: >400 µM
C#Cc1cn([C@@H]2CO[C@H](CO)[C@@H](O)C2)c(=O)[nH]c1=O ; value: >400 µg/mL
CC1(C)[C@@H](CO)CC[C@@]1(C)Cn1ccc(=O)[nH]c1=O ; value: >400 µg/mL
CCn1nc(Cc2n[nH]c(=S)o2)nc1C ; value: >400 µg/mL
Nc1ccn(CC[C@H](O)CCO)c(=O)n1 ; value: >400 µg/mL
CC(Sc1ncnc2c1cnn2CCCCO)C(N)=O ; value: >400 µg/mL
O=c1[nH]c(=O)n([C@@H]2CO[C@H](CO)[C@@H](O)C2)cc1C(F)(F)F ; value: >400 µg/mL
COC(=O)[C@H](C)NP(=O)(OC[C@H]1O[C@@H](n2cc(/C=C/Br)c(=O)[nH]c2=O)C[C@@H]1O)Oc1ccc(Cl)cc1 ; value: 400 µM
Nc1nc2c(ncn2CC[C@H](O)CCO)c(=O)[nH]1 ; value: >400 µg/mL
NNC(=O)Cc1nc2n(n1)CCCCC2 ; value: >400 µg/mL
CC(C)Nc1ncnc2c1ncn2C1C[C@H](CO)[C@@H](CO)C1 ; value: >200 µg/mL
Nc1ncnc2c1ncn2[C@@H]1C=C(CO)[C@@H](O)[C@H]1O ; value: 70 µg/mL

A second listing of 2 rows from above:

CCn1nc(CC(=O)NN=C(C)C)nc1C ; value: >400 µg/mL
C#Cc1cn([C@@H]2CO[C@H](CO)[C@@H](O)C2)c(=O)[nH]c1=O ; value: >400 µg/mL

Two numbers with a dash give a range or band. CCn: concentration that lowers growth or viability of the cells by n%.